# PubChem BioAssay AID504761, Drosophila RNAi Screening Center – 2011
# Screen: 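Fly genes whose silencing reduces dengue virus type 2 infection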 (primary screen)
# System: D.Mel-2 cells from Drosophila
# Reagents: long dsRNA against Drosophila genes
# Challenge: infection with dengue virus type 2; dose and infection time not stated
# Measurement: 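Per well on two replicate plates, imaging gave the percent of cells positive for viral envelope protein, ranked by infection, and a nuclear count of cells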
# Scale: infection score: higher = more virus-infected cells; cell count: higher = more cells in the well
# Active means: 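Low infection ranks in the two replicates (chance level up to 0.065) followed by a retest with a 1.5-fold or larger significant decrease, p below 0.05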
# Meaning of the calls: active = confirmed: knock-down lowers infection; inactive = not picked or not confirmed
# In all, the deposit lists about 22,000 reagents; this is an unselected part of those that have a named target and a result. In the full data, 116 (0.52%) were called active. 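Calls depend on retest data that are not deposited; infection was ranked per plate without normalising between plates; the unit of the infection score is not given.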 Raw values vary from plate to plate and are shown uncorrected. A number with no mark means an inactive call. The numbers tell different reagents against one gene apart. No sequences are given here. Not stated in the record: the amount of reagent, the time to read-out.
gene,reagent no.,"infection score, replicate 1","infection score, replicate 2","cell count, replicate 1","cell count, replicate 2"
CG1902,1,13.8,2.3,5532,6093
CG42284,1,3.74,1.5,6745,6679
CG42284,2,1,4.14,6374,6744
CG4988,1,12.8,21.2,5516,5371
5-HT1B (5-hydroxytryptamine (serotonin) receptor 1B),1,3.36,3.46,5984,6164
5-HT1B (5-hydroxytryptamine (serotonin) receptor 1B),2,3.37,6.48,3917,4198
5-HT1B (5-hydroxytryptamine (serotonin) receptor 1B),3,9.57,2.88,6304,6772
Pp4-19C (Protein phosphatase 19C),1,3.24,8.77,4223,3476
Pp4-19C (Protein phosphatase 19C),2,6.05,6.17,3898,4115
Pp4-19C (Protein phosphatase 19C),3,5.13,11.2,5943,6473
Pp4-19C (Protein phosphatase 19C),4,8.86,7.75,5486,5742
Nopp140,1,7.39,5.01,6534,6383
Nopp140,2,4.66,1.54,5686,6099
kairos,1,3.14,19.6,6079,6330
kairos,2,15.5,14.6,6724,5730
CG11722,1,4.89,10.2,6602,6352
CG10301,1,3.34,15.9,5626,5418
Ars2 (Arsenic resistance protein 2),1,63,39.8,3940,4542
CG8289,1,2.54,1.75,6579,6956
CG8289,2,18.7,7.9,6107,6023
CG1213,1,5.82,3.13,6294,6380
ubl (ubiquitin like),1,7.85,9.54,6099,3303
CG17234,1,8.34,2.99,5875,6349
Cdk9 (Cyclin-dependent kinase 9),1,13.7,18.2,6149,6267
w-cup (world cup),1,4.74,2.39,6587,6391
Kdsr (3-ketodihydrosphingosine reductase),1,16.7,3.41,6591,6747
CG31294,1,5.57,4.72,6625,6394
CG31294,2,3.69,2.03,6470,5858
Drp1 (Dynamin related protein 1),1,5.37,0.63,5344,6537
Drp1 (Dynamin related protein 1),2,2.66,4.02,5756,6025
Vps45 (Vacuolar protein sorting 45),1,3.64,7.42,6488,6633
Noc2 (Nucleolar complex protein 2),1,17.2,28.6,6411,5194
Gba1a (Glucocerebrosidase 1a),1,2.66,20.4,5862,6040
kek4 (kekkon 4),1,7.83,2.68,6681,6786
CG7556,1,2.33,2.25,6395,6135
CG7556,2,2.16,1.23,6154,6430
CG17568,1,,13.9,605,6719
Aldh7A1 (Aldehyde dehydrogenase 7 family member A1),1,3.55,8.37,6058,7121
heph (hephaestus),1,0.88,0.24,6561,6613
heph (hephaestus),2,3.66,0.86,6171,6186
heph (hephaestus),3,9.46,8.96,5529,4063
